Experimental data from patent US20260183277A1, “ANTIVIRAL PHARMACEUTICAL COMPOSITION COMPRISING ERRy INHIBITOR AS ACTIVE INGREDIENT” (priority 2024, published 2026).

Key:
[1] = system: influenza A virus (IAV) PR8 strain; experiment: In vitro antiviral activity against IAV; format: cell-based; conditions: from CC50 and IC50
SARS-CoV-2 KCDC03 = experiment: In vitro antiviral activity against SARS-CoV-2 (viral yield by cell culture immunofluorescence assay, cytotoxicity by MTT); format: cell-based; conditions: from CC50 and IC50

SMILES: CC(C)N1CCN(c2ccc(/C(=C(/CCCO)c3ccccc3)c3ccc(O)cc3)cc2)CC1 [DN200434]
- selectivity index (SI) [1]: 34
- selectivity index (SI) (SARS-CoV-2 KCDC03): 50
